Laboratory results published in patent US20260102351A1, “LYOPHILIZED FORMULATION OF CROFELEMER AND METHODS OF TREATMENT USING THE SAME” (priority 2022, published 2026).

Assay: Sweetener studies (high intensity sweetener excipients)
Conditions: 100 mg/mL crofelemer solution

OC[C@H]1O[C@H](O[C@]2(CCl)O[C@H](CCl)[C@@H](O)[C@@H]2O)[C@H](O)[C@@H](O)[C@H]1Cl [Sucralose]
Usage found to overcome the intensity of bitterness of crofelemer: 10 to 15 mg/mL
